In patent publication US20240376182A1 (SAMATVA RESEARCH, published 2024):
Like-named read-outs stand apart in the source and are kept apart here.

B1: Karunyam 23 (scFv)
chain: MNHKVHHHHHHIEGRHMSPILGYWKIKGLVQPTRLLLEYLEEKYEEHLYERDEGDKWRNKKFELGLEFPNLPYYIDGDVKLTQSMAIIRYIADKHNMLGGCPKERAEISMLEGAVLDIRYGVSRIAYSKDFETLKVDFLSKLPEMLKMFEDRLCHKTYLNGDHVTHPDFMLYDALDVVLYMDPMCLDAFPKLVCFKKRIEAIPQIDKYLKSSKYIAWPLQGWQATFGGGDHPPKGIEENLYFQSHMELGTLEGEFDPIVMIDNDKPITGGGGSGSQVQLQESGPGLVKPSETLSLTCTVSGYSISSGYYWGWIRQPPGKGLEWIGSIYHSGSTYYNPSLKTRVTISVDTSKNQFSLKLSSVTAADTAVYYCARAVVGIVVVPAAGRRAFDIWGQGTMVTVSSGGGGSGGGGSGGGGSGGGGSGGGGSQSALTQPPSASGSPGQSVTISCTGTSSDVGGYNYVSWYQQHPGKAPKLMIYEVSKRPSGVPDRFSGSKSGNTASLTVSGLQAEDEADYYCSSYAGSNNLVFGGGTKVDYSRCQLQGFNCVVRSYGLPTIPCCRGLTCRSYFPGSTYGRCQRYSR
B2: Karunyam 26 (receptor)
chain: MNHKVHHHHHHIEGRHMSPILGYWKIKGLVQPTRLLLEYLEEKYEEHLYERDEGDKWRNKKFELGLEFPNLPYYIDGDVKLTQSMAIIRYIADKHNMLGGCPKERAEISMLEGAVLDIRYGVSRIAYSKDFETLKVDFLSKLPEMLKMFEDRLCHKTYLNGDHVTHPDFMLYDALDVVLYMDPMCLDAFPKLVCFKKRIEAIPQIDKYLKSSKYIAWPLQGWQATFGGGDHPPKGIEENLYFQSHMELGTLEGEFQSTIEEQAKTFLDFFNIQAEDLFYQSSLASWNYNTNITEENVQNMNNAGDKWSAFLKEQSTLAQMYPLQEIQNLTVKLQLQALQQNGSSVLSEDKSKRLNTILNTMSTIYSTGKVCNPDNPQECLLLEPGLVDVSGNLKVEFYNSNPSDTTNSINPQFKVTNTGSSAIDLSKLTLRYYYTVDGQKDQTFWCDHAAIIGSNGSYNGITSNVKGTFVKMSSSTNNADTYLEISFTGGTLEPGAHVQIQGRFAKNDWSNYTQSNDYSFKSASQFVEWDQVTAYLNGVLVWGKESR
B3: Karunyam 9 (scFv)
chain: MNHKVHHHHHHIEGRHMSPILGYWKIKGLVQPTRLLLEYLEEKYEEHLYERDEGDKWRNKKFELGLEFPNLPYYIDGDVKLTQSMAIIRYIADKHNMLGGCPKERAEISMLEGAVLDIRYGVSRIAYSKDFETLKVDFLSKLPEMLKMFEDRLCHKTYLNGDHVTHPDFMLYDALDVVLYMDPMCLDAFPKLVCFKKRIEAIPQIDKYLKSSKYIAWPLQGWQATFGGGDHPPKGIEENLYFQSHMELGTLEGEFDPIVMIDNDKPITGGGGSGSQVQLQESGPGLVKPSETLSLTCTVSGYSISSGYYWGWIRQPPGKGLEWIGSIYHSGSTYYNPSLKTRVTISVDTSKNQFSLKLSSVTAADTAVYYCARAVVGIVVVPAAGRRAFDIWGQGTMVTVSSGGGGSGGGGSGGGGSGGGGSGGGGSQSALTQPPSASGSPGQSVTISCTGTSSDVGGYNYVSWYQQHPGKAPKLMIYEVSKRPSGVPDRFSGSKSGNTASLTVSGLQAEDEADYYCSSYAGSNNLVFGGGTKVDSVSGNLKVEFYNSNPSDTTNSINPQFKVTNTGSSAIDLSKLTLRYYYTVDGQKDQTFWCDHAAIIGSNGSYNGITSNVKGTFVKMSSSTNNADTYLEISFTGGTLEPGAHVQIQGRFAKNDWSNYTQSNDYSFKSASQFVEWDQVTAYLNGVLVWGKESR
B4: Karunyam 21 (scFv)
chain: MNHKVHHHHHHIEGRHMSPILGYWKIKGLVQPTRLLLEYLEEKYEEHLYERDEGDKWRNKKFELGLEFPNLPYYIDGDVKLTQSMAIIRYIADKHNMLGGCPKERAEISMLEGAVLDIRYGVSRIAYSKDFETLKVDFLSKLPEMLKMFEDRLCHKTYLNGDHVTHPDFMLYDALDVVLYMDPMCLDAFPKLVCFKKRIEAIPQIDKYLKSSKYIAWPLQGWQATFGGGDHPPKGIEENLYFQSHMELGTLEGEFDPIVMIDNDKPITGGGGSGSQVQLQESGPGLVKPSETLSLTCTVSGYSISSGYYWGWIRQPPGKGLEWIGSIYHSGSTYYNPSLKTRVTISVDTSKNQFSLKLSSVTAADTAVYYCARAVVGIVVVPAAGRRAFDIWGQGTMVTVSSGGGGSGGGGSGGGGSGGGGSGGGGSQSALTQPPSASGSPGQSVTISCTGTSSDVGGYNYVSWYQQHPGKAPKLMIYEVSKRPSGVPDRFSGSKSGNTASLTVSGLQAEDEADYYCSSYAGSNNLVFGGGTKVDTNPGVSAWQVNTAYTAGQLVTYNGKTYKCLQPHTSLAGWEPSNVPALWQLQSR

What was measured:
[1] = target: biotinylated RBD-spike protein ([…], […]) (SARS-CoV-2)
[2] = target: biotinylated RBD-spike protein ([…], […]) (SARS-CoV-2); remark: listed apart in the source
[3] = target: biotinylated RBD-spike protein ([…], […]) (SARS-CoV-2); remark: listed apart in the source

Row | Binder | Kd [1] | further results
1 | B1 | 12.3 nM | 
2 | B2 |  | Kd [2]: 17 nM
3 | B3 |  | Kd [3]: 4.05 nM
4 | B4 | 12.8 nM | 
